Test system: O=S(O)(O)=S
Assay: purified protein
Details: pH 8.6; 25.0 °C

Substance: (Mycobacterium tuberculosis H37Rv)
- Km: 4.19 ± 0.42 mM

— paper PMC3227635
